In article PMC9525273:

Columns and labels:
[1] = test system: Dd2-Polδ-PfATP4^G358S parasites; experiment: P. falciparum proliferation assay (72 h, fluorescent DNA-intercalating dye); type: cell-based, Plasmodium falciparum; settings: Dd2-Polδ-PfATP4G358S vs Dd2-Polδ; mean ± SEM
Description: For experiments with all other parasites, the effects of compounds of interest on parasite proliferation was measured in 96-well plates containing serial dilutions of the compounds in culture medium, with a fluorescent DNA-intercalating dye used to detect surviving parasites. The assays were initiated with erythrocytes infected with predominantly ring-stage parasites, and the starting parasitaemia and haematocrit were both 1%.

[2] = test system: Dd2-B2-PfATP4^G358S parasites; experiment: P. falciparum proliferation assay (72 h, flow cytometry, SYBR Green I/MitoTracker); type: cell-based, Plasmodium falciparum; settings: Dd2-B2-PfATP4G358S vs Dd2-B2
Description: Two types of parasite proliferation assays were employed in this study, with both yielding highly consistent results. For the NF54-based lines and Dd2-B2-PfATP4^G358S and its parent, assays were initiated with cultures containing predominantly ring-stage parasites with a parasitaemia of 0.3% and a haematocrit of 1%. All assays using NF54 were performed in culture media containing 10% O + human serum. The duration of the assays was 72 h and the concentration of DMSO was <0.5% (v/v). Serial dilutions of the test compounds were performed using a Tecan D300e digital dispenser, with parasite cultures added manually. Parasite survival was assessed by flow cytometry on an Intellicyt iQue3 (Essen Bioscience), with 1× SYBR Green I (Invitrogen) and 200 nM MitoTracker Deep Red FM (Invitrogen) used to stain the nucleus and the mitochondria in live parasites, respectively. The gating strategy used to quantify parasite survival, performed using FlowJo version 10 (FlowJo LLC.), is illustrated in Supplementary Fig. 9. IC50 and IC90 values were calculated by linear interpolation of the dose-response data.

[3] = test system: isolated Dd2-Polδ-PfATP4^G358S P. falciparum trophozoites; experiment: [Na+]cyt measurement (SBFI), Na+ dysregulation; type: cell-based, Plasmodium falciparum; settings: Dd2-Polδ-PfATP4G358S vs Dd2-Polδ; estimated
Description: The ratio of the fluorescence intensity recorded at 340 nm and 380 nm (with an emission wavelength of 515 nm) was converted to [Na^+]cyt using a calibration procedure that entailed suspending parasites in solutions of varying [Na^+] containing ionophores. Fluorescence measurements and calibrations were performed at 37 °C, either with individual 1 mL suspensions using a PerkinElmer LS 50B fluorescence spectrometer (for resting [Na^+]cyt measurements for which the data are shown in Supplementary Fig. 7) or in 96-well plates using a Tecan Infinite M1000 PRO plate reader with i-control (version 1.12) software (all other [Na^+]cyt measurements).

[4] = test system: Dd2-B2-PfATP4^G358S parasites; settings: Dd2-B2-PfATP4G358S; cited from earlier work

SMILES	IC50 fold higher than that of Dd2-Polδ parent [1]	IC50 fold higher than for Dd2-B2 parent [2]	IC50 for [Na+]cyt dysregulation, fold higher than in parental Dd2-Polδ [3]	fold resistance earlier reported [4]
N#Cc1cc(NC(=O)[C@H]2c3ccccc3C(=O)N(CC(F)(F)F)[C@@H]2c2cccnc2)ccc1F [(+)-SJ733]	237 ± 51 fold	186 ± 18 fold	> 180 fold	5 fold
C[C@H]1Cc2c([nH]c3cc(Cl)c(F)cc23)[C@@]2(N1)C(=O)Nc1ccc(Cl)cc12 [Cipargamin]	1082 ± 138 fold	795 ± 98 fold	> 230 fold	–
